These results are taken from patent US12227512B2, “Benzimidazoles and methods of using same” (priority 2019, dated 2025).

The test system of test [1] is RNA virus. The experiment in a line: Inhibition of RNA virus replication (FIG. 1).
Test [2] has as its system SARS-CoV-2. Briefly: SARS-CoV-2 nucleocapsid protein (Western blot) and viral RNA in infected Vero cells. Conditions: 24 hours post-infection.

Regarding `CN(C)CCCn1c(N)nc2ccc3c(c21)CC(CN(C)C)O3` (stereo not shown), the “relative potency versus BCX4430” value in test [1] (Zika) came out at 80 fold. Further, the “activity difference between E1 and E2 isomers” value in test [1] (depending on the virus and the assay conditions, E2 has the lower EC50) was 10-100 fold. Further, the “potency relative to BCX4430” value in test [1] (diverse sampling of therapeutically relevant viruses) is listed as 10-100 fold. Moreover, the “SARS-CoV-2 viral RNA” value in test [2] was “decreased”.
